# What was measured:
# [1] = test system: neuraminidase (NA) of variant influenza A (H3N2)v viruses; assay: NA-Fluor fluorescent NA inhibition (NI) assay, variant A (H3N2)v viruses; type: biochemical, influenza A (H3N2)v virus; settings: for Fold change in IC50 of test viruses, Approach #1: vs IC50 of A/California/07/2009 tested in same assay; for Fold change in IC50 of test viruses, Approach #2: vs median IC50 of A/California/07/2009 from 70 assays
# [2] = test system: neuraminidase (NA) of influenza A (H1N1)pdm09 viruses; assay: NA-Fluor fluorescent NA inhibition (NI) assay, A (H1N1)pdm09 viruses; type: biochemical, influenza A (H1N1)pdm09 virus; settings: H1N1pdm09 viruses with Normal NA inhibition
# [3] = test system: neuraminidase (NA) of influenza A (H3N2) viruses; assay: NA-Fluor fluorescent NA inhibition (NI) assay, A (H3N2) viruses; type: biochemical, influenza A (H3N2) virus; settings: H3N2 viruses with Normal NA inhibition
# [4] = test system: neuraminidase (NA) of influenza B viruses; assay: NA-Fluor fluorescent NA inhibition (NI) assay, influenza B viruses; type: biochemical, influenza B virus; settings: Influenza B viruses with Normal NA inhibition
# [5] = H3N2v virus with Highly reduced NA inhibition (1 virus)
# [6] = H3N2v viruses with Normal NA inhibition
# [7] = vs median IC50 for virus type/subtype
# [8] = vs median IC50 of A/California/07/2009 from 70 assays
smiles,measurement,setting,value
"CC(=O)N[C@H]1[C@H]([C@H](O)[C@H](O)CO)OC(C(=O)O)=C[C@@H]1N=C(N)N [Zanamivir, zanamivir]","Fold change in IC50 of test viruses, Approach #1",[1]; [5],223 (1) fold
same,"Fold change in IC50 of test viruses, Approach #2",[1]; [5],199 (1) fold
same,"Fold change in IC50 of test viruses, Approach #3","[1]; H3N2v virus with Reduced NA inhibition (1 virus, S245N + S247P), vs median IC50 for virus type/subtype",70 (1) fold
same,"Fold change in IC50 of test viruses, Approach #1",[1]; [6],2–5 (155) fold
same,"Fold change in IC50 of test viruses, Approach #2",[1]; [6],2–4 (155) fold
same,"Fold change in IC50 of test viruses, Approach #1",[2]; vs IC50 of reference virus A/California/07/2009 tested in same assay,0–6 (449) fold
same,"Fold change in IC50 of test viruses, Approach #3",[2]; [7],1–6 (449) fold
same,"Fold change in IC50 of test viruses, Approach #2",[2]; [8],1–6 (449) fold
same,"Fold change in IC50 of test viruses, Approach #1",[3]; vs IC50 of A/California/07/2009 tested in same assay,1–6 (977) fold
same,"Fold change in IC50 of test viruses, Approach #3",[3]; [7],0–5 (977) fold
same,"Fold change in IC50 of test viruses, Approach #2",[3]; [8],1–6 (977) fold
same,"Fold change in IC50 of test viruses, Approach #3",[4]; [7],0–2 (342) fold
same,"Fold change in IC50 of test viruses, Approach #2",[4]; vs median IC50 of B/Rochester/02/2001 from 11 assays,1–3 (342) fold

# Source: PMC4186475 (Influenza and Other Respiratory Viruses, 2013)
